Anti-infective test results gathered from many reports (values: NIAID ChemDB through PubChem).

Common to all: whole-cell or culture tests; species: Mycobacterium tuberculosis

ECn is the concentration giving n% inhibition of infection, replication or growth.

structure | cell line | strain | method | dose | setting | read-out | value
CNC(=O)OCc1cnc2ccc(OC)cc2c1COC(=O)NC |  | H37Rv | BACTEC |  |  | MIC bound | >12.5 µg/mL
O=C(Cc1csc2nc(-c3ccccc3)cn12)N/N=C/c1ccccc1O |  | H37Rv |  | 12.5 µg/mL |  | inhibition | 0%
COc1ccccc1C1OC2=C(Nc3ccc(Cl)cc3N2)C1=O |  | H37Rv | BACTEC | 12.5 µg/mL |  | inhibition | -44%
Cc1cc(C)c2c(n1)S(=O)(=O)N/C(=C(/O)c1ccccc1)C2=O |  | H37Rv |  | 12.5 µg/mL |  | inhibition | 37%
COc1cc(C(O)(CCN(C)C)C(c2cc(-c3cccc(Cl)c3)cnc2OC)c2cccc(OC)c2F)cc(OC)n1 |  | H37Rv | fluorescence |  |  | EC90 | 8.34 µM
COc1cccc2c1C(=O)c1c(O)c3c(c(O)c1C2=O)C[C@@](O)(/C(C)=N/NC(=O)c1ccc(Cl)c(Cl)c1)C[C@H]3O[C@H]1C[C@H](N)[C@H](O)[C@H](C)O1 |  | H37Rv | BACTEC |  |  | MIC | ≥12.5 µg/mL
C1=C2CCCC/C=C\C=C\CCN3CC[C@@H]4[C@H](CCCCCC/C=C\C=C/CCN(C2)C[C@H]14)C3 |  | H37Rv (ATCC 25618) |  |  |  | MIC | 6.25 µg/mL
CCN(CC)c1ccc2nc3c4ccccc4c(=N)cc-3oc2c1 |  | ETA-R |  |  |  | MIC | 3.1 µg/mL
CCCCCCCN1C(=O)c2cc(Cl)nnc2Oc2ccc(Cl)cc21 |  | H37Rv | BACTEC |  |  | EC50 | >12.5 µg/mL
CN(C)CCN1C(=O)c2cccc3cc(N)cc(c23)C1=O |  | H37Rv | resazurin | 6.25 µg/mL |  | inhibition | 12%
CC[C@@H](C)[C@H](NC(=O)OCc1ccccc1)c1cnc(-c2ccc([N+](=O)[O-])cc2)[nH]1 |  | My 331/88 |  |  | 21 d | MIC | 32 µM
O/N=C(\Cc1nc2cc(Cl)c(Cl)cc2nc1C/C(=N\O)c1ccncc1)c1ccncc1 |  | H37Rv | BACTEC |  |  | MIC bound | >6.25 µg/mL
C=CC[n+]1c(C=Cc2coc3ccc(Br)cc3c2=O)sc2ccccc21 |  | H37Rv |  |  |  | MIC | 60 µM
C[C@H]1COc2c(N3CCN(C)CC3)c(F)cc3c(=O)c(C(=O)O)cn1c23 |  | H37Rv |  |  |  | MIC | 0.5 µg/mL
CC[n+]1c(C=Cc2coc3ccccc3c2=O)sc2ccccc21 |  | H37Rv |  |  |  | MIC | 125 µM
C[C@H](NC(=O)OCc1ccccc1)c1cnc(-c2ccc([N+](=O)[O-])cc2)[nH]1 |  | My 331/88 |  |  | 14 d | MIC | >125 µM
COc1ccc(-c2csc(Nc3ccc(C)cc3)n2)cc1 |  |  | resazurin |  |  | MIC | 13 µM
O=C(Cc1csc2nc(-c3ccccc3)cn12)N/N=C/c1ccc([N+](=O)[O-])cc1 |  | H37Rv |  |  |  | MIC | >12.5 µg/mL
COc1cc(C(O)(CCN(C)C)C(c2cc(-c3ccccc3C#N)cnc2OC)c2cccc(OC)c2F)cc(OC)n1 |  | H37Rv | fluorescence |  |  | EC90 | 16.83 µM
C=C(C)[C@@H]1CC[C@]2(C)CC[C@]3(C)C(CCC4[C@@]5(C)CCC(OC(=O)/C=C/c6ccc(OC)c(O)c6)C(C)(C)C5CC[C@]43C)C12 |  | H37Rv ATCC 27294 (drug-susceptible) |  |  |  | MIC | >100 µg/mL
O=C(N=Nc1c(O)n(CO)c2ccccc12)c1ccncc1 |  | BOVIN |  |  |  | MIC | 3 µg/mL
CC(C)C[C@H](NC(=O)OCc1ccccc1)c1cnc(-c2ccccc2)[nH]1 |  | My 331/88 |  |  | 21 d | MIC | >250 µM
CO[C@H]1/C=C/O[C@@]2(C)Oc3c(C)c(O)c4c(O)c(c(N5CCN(Cc6c(C)cc(C)cc6C)CC5)c(O)c4c3C2=O)NC(=O)/C(C)=C\C=C\[C@H](C)[C@H](O)[C@@H](C)[C@@H](O)[C@@H](C)[C@H](OC(C)=O)[C@@H]1C |  | 1620-4 |  |  |  | MBC | 0.12 µg/mL
O=c1ccc2nc3cc(Br)ccc3sc-2c1 |  | H37Rv | BACTEC |  |  | MIC bound | ≤12.5 µg/mL
c1ccc(-n2nnnc2SSc2nnnn2-c2ccccc2)cc1 |  | H37Rv |  |  |  | MIC | >1000 µM
O=C(/C=C/c1ccccc1)c1ccc(O)cc1 |  | H37Rv | MTT |  |  | MIC | 32 µg/mL
CN(C)C(=S)SCc1ccc(Cl)cc1Cl |  | H37Rv | BACTEC |  |  | MIC | 32 µg/mL
COc1cc(C(O)(CCN(C)C)C(c2cc(-c3cccnc3)cnc2OC)c2cccc(OC)c2F)cc(OC)n1 |  | H37Rv | fluorescence |  |  | EC90 | 17.11 µM
CO[C@H]1/C=C/O[C@@]2(C)Oc3c(C)c(O)c4c(O)c(cc(O)c4c3C2=O)NC(=O)/C(C)=C\C=C\[C@H](C)[C@H](O)[C@@H](C)[C@@H](O)[C@@H](C)[C@H](OC(C)=O)[C@@H]1C |  | Schiavo |  |  |  | MIC | 0.005 µg/mL
O=C(Cc1csc2nc(-c3ccccc3)cn12)N/N=C/C=C/c1ccc([N+](=O)[O-])o1 |  | H37Rv |  |  |  | MIC | >12.5 µg/mL
Cc1c(C)[n+](=O)c2ccccc2n1[O-] |  | H37Rv | BACTEC |  |  | MIC bound | >12.5 µg/mL
CCCCNC(=O)CN1C(C(C)=O)=C(O)c2c(C)cc(C)nc2S1(=O)=O |  | H37Rv |  |  |  | MIC | >12.5 µg/mL
C=CCN1C(=O)CC(=O)N(NC2=NNC3(C(=O)N2)c2ccccc2-c2ccccc23)C1=S |  | H37Rv | BACTEC | 12.5 µg/mL |  | inhibition | 0%
COc1ccccc1/C=N/NC(=O)Cc1csc2nc(-c3ccccc3)cn12 |  | H37Rv |  |  |  | EC50 | <12.5 µg/mL
O=[N+]([O-])c1cn2c(n1)OC[C@@H](OCc1ccc(OC(F)(F)F)cc1)C2 |  | UT29 |  |  |  | MIC | 0.024 µg/mL
COc1ccc(-c2cc(=O)c3c(O)cc(O)cc3o2)cc1 |  | H37Ra |  |  |  | MIC | 704.2 µM
COc1ccc2nc(N/N=C/c3cccc(C)n3)cc(C)c2c1 |  | H37Rv | BACTEC | 12.5 µg/mL |  | inhibition | 46%
Cc1cc(C)c2c(=O)n(CC(O)CN3CCC(Cc4ccccc4)CC3)sc2n1 |  | H37Rv |  |  |  | EC50 | <12.5 µg/mL
COc1c(N2CCNC(C)C2)c(F)cc2c(=O)c(C(=O)O)cn(C3CC3)c12 |  |  |  |  |  | MIC50 | 0.12–1 µg/mL
CC(=O)C1=C(O)c2c(C)cc(C)nc2S(=O)(=O)N1CC(=O)c1ccccc1 |  | H37Rv |  |  |  | EC50 | >12.5 µg/mL
O=C1OCC(O)C([C@@H]2OC(=O)c3cc(O)c(O)c(O)c3-c3c(O)c(O)c(O)c4c3C(=O)OC2C(O)C4)OC(=O)c2cc(O)c(O)c(O)c2-c2c(O)c(O)c3oc(=O)c4c(ccc5oc(=O)c2c3c54)-c2cc1c(O)c(O)c2O |  | H37Rv | BACTEC |  |  | MIC bound | >12.5 µg/mL
O=C(c1ccc([N+](=O)[O-])o1)N1CCc2cc(N3CCN(Cc4ccccc4)CC3)ccc2C1 |  | H37Rv |  |  |  | MIC | 0.012 µg/mL
O=c1cc(-c2ccc(O)c(O)c2)oc2cc(O)cc(O)c12 |  | H37Ra |  |  |  | MIC | 699.3 µM
O/C(=C\c1nc2ccccc2nc1/C=C(\O)c1ccc(Cl)cc1)c1ccc(Cl)cc1 |  |  |  |  |  | EC50 | >6.25 µg/mL
COc1c2occc2c(S(=O)(=O)O)c2ccc(=O)oc12 |  | H37Rv | BACTEC |  |  | MIC bound | >12.5 µg/mL
C=CC[n+]1c(C=Cc2coc3ccccc3c2=O)sc2ccccc21 |  | H37Rv |  |  |  | MIC | 125 µM
O=C(/C=C/c1c(F)cccc1Cl)c1ccc(F)cc1 |  | H37Rv | resazurin |  | 7 d | MIC | 64 µg/mL
CCOC(=O)N1CCN(c2ccc(CNC(=O)c3ccc([N+](=O)[O-])o3)cc2F)CC1 |  | H37Ra |  |  |  | MIC | 0.004 µg/mL
C=CCNC(=S)NNC(=O)c1ccncc1 | VERO | H37Rv |  |  |  | MIC | 6.25 µg/mL
CC(C)[C@H](NC(=O)OCc1ccccc1)c1cnc(-c2ccc([N+](=O)[O-])cc2)[nH]1 |  | My 331/88 |  |  | 14 d | MIC | 16 µM
Nc1ccc2nc3cc(Nc4ccccc4)c(=Nc4ccccc4)cc-3n(-c3ccccc3)c2c1 |  | ETA-R |  |  |  | MIC | 0.2 µg/mL
CCCCCCCN1C(=O)c2cc(Cl)nnc2Oc2ccc(C)cc21 |  | H37Rv | BACTEC | 12.5 µg/mL |  | inhibition | 43%
CC(C)(C)OC(=O)NCCCCC(NC(=O)OCC1c2ccccc2-c2ccccc21)C(=O)N1CCCC1C(=O)NCC(N)=O |  | H37Rv | BACTEC | 12.5 µg/mL |  | inhibition | 7%
COc1cc2c(c(OC)c1OC)C(=O)CC(c1ccc(O)cc1)O2 |  | H37Ra |  |  |  | MIC | 606 µM
COc1cc(C(O)(CCN(C)C)C(c2cc(-c3ccccc3F)cnc2OC)c2cccc(OC)c2F)cc(OC)n1 |  | H37Rv | fluorescence |  |  | EC90 | 9.96 µM
N[C@@H]1CN(c2c(F)cc3c(=O)c(C(=O)O)cn([C@@H]4C[C@@H]4F)c3c2Cl)CC12CC2 |  |  |  |  |  | MIC90 | 0.12–2 µg/mL
Cc1ccc(C(=O)Nc2ccc(S(=O)(=O)O)c3cc(S(=O)(=O)O)cc(S(=O)(=O)O)c23)cc1NC(=O)c1cccc(NC(=O)Nc2cccc(C(=O)Nc3cc(C(=O)Nc4ccc(S(=O)(=O)O)c5cc(S(=O)(=O)O)cc(S(=O)(=O)O)c45)ccc3C)c2)c1 |  | H37Rv | BACTEC | 12.5 µg/mL |  | inhibition | 0%
NNC(=O)c1ccncc1 |  | PR146 |  |  |  | MIC | 2.5 µg/mL
O=C(/C=C/c1ccccc1Cl)c1ccccc1 |  | H37Rv | MTT |  | 14 d | MIC | 32 µg/mL
COc1ccc(/C=C(/C(=O)OCC(C)C)c2ccc(OC)c(OC)c2)cc1OC |  | H37Rv | BACTEC |  |  | MIC bound | >12.5 µg/mL
CC(C)(C)C/C(O)=C/c1nc2ccccc2nc1/C=C(\O)CC(C)(C)C |  |  |  |  |  | MIC | >6.25 µg/mL
O=C(/C=C/c1c(F)cccc1Cl)c1ccccc1 |  | H37Rv | resazurin |  | 21 d | MIC | 16 µg/mL
O=c1c(C=Cc2sc3ccccc3[n+]2Cc2ccc([N+](=O)[O-])cc2)coc2ccccc12 |  | H37Rv |  |  |  | MIC | >500 µM
Cc1cc(C)c2c(n1)S(=O)(=O)N(CC(=O)NC1CCCCC1)/C(=C(/O)c1ccccc1)C2=O |  | H37Rv |  | 12.5 µg/mL |  | inhibition | 28%
C[n+]1c(C=Cc2coc3ccc(Cl)cc3c2=O)sc2ccccc21 |  | H37Rv |  |  |  | MIC | 250 µM
O=C(/C=C1\N[C@@H]2CCCC[C@H]2N\C1=C/C(=O)c1ccccc1)c1ccccc1 |  |  |  |  |  | MIC | >6.25 µg/mL
O=c1c(C=Cc2nc3ccccc3s2)coc2ccc(Cl)cc12 |  | H37Rv |  |  |  | MIC | 250 µM
Cc1ccc(-n2nnnc2SSc2nnnn2-c2ccc(C)c(C)c2)cc1C |  | H37Rv |  |  |  | MIC | 250 µM
Nc1cc(Cl)c(Cl)cc1NS(=O)(=O)c1ccccc1 |  | H37Rv | BACTEC | 6.25 µg/mL |  | inhibition | 0%
COc1ccc(C(=O)/C=C/c2ccccc2Cl)c(F)c1 |  | H37Rv | resazurin |  | 14 d | MIC | 32 µg/mL
Cc1c(F)c(N2CCNC(C)C2)cc2c1c(=O)c(C(=O)O)cn2C1CC1 |  |  |  |  |  | MIC90 | 1 µg/mL
C=CCN1C(=O)c2c(C)cc(C)nc2S1(=O)=O |  | H37Rv |  | 12.5 µg/mL |  | inhibition | 0%
O=C(NCc1ccc(N2CCN(Cc3ccccc3)CC2)cc1)c1ccc([N+](=O)[O-])o1 |  | UT29 |  |  |  | MIC | 0.024 µg/mL
COC(=O)c1nn(-c2ccccc2)c2c1C(=O)c1ccccc1C2=O |  | H37Rv | resazurin |  |  | MIC | 3.13 µg/mL
CCCCCCN1C(=O)c2cc(Cl)nnc2Oc2cc(C)ccc21 |  | H37Rv | BACTEC | 12.5 µg/mL |  | inhibition | 78%
O=C(N=Nc1c(O)n(Cc2ccccc2)c2ccccc12)c1ccncc1 |  | Human sensitive isolate |  |  |  | MIC | 3.5 µg/mL
COc1cc(C(O)(CCN(C)C)C(c2cc(-c3ccc(F)cc3)cnc2OC)c2cccc(OC)c2F)cc(OC)n1 |  | H37Rv | fluorescence |  |  | EC90 | 4.3 µM
O=C(/C=C/c1ccc(F)cc1)c1ccc(F)cc1 |  | H37Rv | MTT |  | 7 d | MIC | 32 µg/mL
CCOC(=O)Cn1sc2nc(C)cc(C)c2c1=O |  | H37Rv |  |  |  | MIC | <12.5 µg/mL
NNC(=O)c1ccncc1 |  | H37Rv |  |  |  | MIC | 15 µM
O=C(/C=C/c1ccccc1)c1ccc(F)cc1 |  | H37Rv | MTT |  |  | MIC | 32 µg/mL
Clc1ccc(-n2nnnc2SSc2nnnn2-c2ccc(Cl)cc2)cc1 |  | H37Rv |  |  |  | MIC | 125 µM
COc1cccc(/C=N/NC(=O)Cc2csc3nc(-c4ccccc4)cn23)c1 |  | H37Rv |  |  |  | EC50 | >12.5 µg/mL

An empty or dashed field is not shown. A number after MIC or MFC names an inhibition level or a share of isolates. Conditions beyond the fields shown may differ between rows. Percent inhibition refers to the dose given; in toxicity tests it is the harm to the cells. a–b is a range or a potency band. MIC bound: limit read from a one-dose screen.